Values joined by “and” are separate entries in the source; they are usually repeats but may differ in a detail not shown here. Equal entries are not always repeated. Where two headings read alike, the source gives them in different places. Non-standard residues stand in square brackets, D forms with d. Residues, ends and D or L forms follow the SMILES beside them. Phe(4-NH2) = Nc1ccc(C[C@H](N)C(=O)O)cc1; 1Nal = N[C@@H](Cc1cccc2ccccc12)C(=O)O; Sta = CC(C)C[C@H](N)[C@@H](O)CC(=O)O
Tests used:
[1] = system: HTLV-IIIB strain of HIV-1; format: cell-based; conditions: CEM cells
Description: (§1) Quantitative evaluation of the viral inhibition were performed on the T-cell lymphoblastoid cell lines MT-2 (Harada et al., 1985, Science 229:563-566) and CEM (Nara and Fischinger, 1988, Nature 332:469-470). The cells were infected with the HTLV-IIIB strain of HIV-1 from the supernatant fluid of infected human T-lymphocyte cell line H9 (Popovic, M. et al., 1984, Science 224:497-500). Each of these three cell lines are publicly available from the National Institutes of Health (NIH) AIDS Research and Reference Reagent Program. The H9/HTLC-IIIB cell line is available under catalogue number 231, while CEM cell line is available under catalogue number 117 and the MT-2 cell line is available under the catalogue number 237. MT-2 and CEM cells were grown in RPMI 1640 medium supplemented with 10% (v/v) fetal calf serum, 100 U/ml penicillin, 100 μg/ml streptomycin and 25 mM HEPEs buffer. H9 cells were grown in the same medium except 20% fetal calf serum was used. The peptides were diluted in the medium used for MT-2 and CEM cells. Cell cultures were maintained in disposable tissue culture labware at 37° C. in a humidified atmosphere of 5% CO2 in air.
(§2) The inhibitors were dissolved in DMSO at 40 mg/ml or sterile water at 2 mg/ml, then dilutions were made in medium. The dilutions were added to micro-titer plates in 100 μl/well aliquots so that the high drug concentration for each screen was 100 μg/ml after the addition of cells to the well.
(§3) Susceptible MT-2 and CEM cells were grown and the cell population determined by a trypan blue viable cell count. […]
Reagents for colorimetric evaluation of cell viability were prepared by mixing the tetrazolium reagent, XTT, and phenazine methosulfate (PMS) to final concentrations of 200 μg/ml and 0.02 mM, respectively. […] The plates were read with the sealers in place in a Vmax Plate Reader® at 450 nm and 650 nm. The cytopathic effect (CPE) and percentage of cell viability were then calculated. […]

[2] = system: HTLV-IIIB strain of HIV-1; format: cell-based; conditions: MT-2 cells
Description: as §1, §2, §3
Reagents for colorimetric evaluation of cell viability were prepared by mixing the tetrazolium reagent, XTT, and phenazine methosulfate (PMS) to final concentrations of 200 μg/ml and 0.02 mM, respectively. […] The plates were read with the sealers in place in a Vmax Plate Reader® at 450 nm and 650 nm. The cytopathic effect (CPE) and percentage of cell viability were then calculated.

| Structure (SMILES) | TI (Therapeutic index, MTC50 divided by ID50) [1] | TI (Therapeutic index, MTC50 divided by ID50) [2] |
| --- | --- | --- |
| CC(C)C[C@H](NC(=O)C[C@H](O)[C@H](CC(C)C)NC(=O)[C@@H](NC(=O)[C@H](Cc1ccccc1)NC(=O)[C@@H]1CCCN1C(=O)[C@@H](N)Cc1c[nH]cn1)C(C)C)C(=O)N[C@@H](Cc1ccccc1)C(=O)N[C@@H](Cc1ccc(N)cc1)C(N)=O [P-15, H-His Pro Phe Val Statine Leu Phe paF NH2] (H-HPFV[Sta]LF[Phe(4-NH2)]-NH2) | > 1.3 | – |
| Nc1ccn([C@H]2CC[C@@H](CO)O2)c(=O)n1 [DDC, 2', 3Dideoxycytidine] | – | > 93 and 101 |
| CC(=O)N[C@@H](Cc1cccc2ccccc12)C(=O)N1CCC[C@H]1C(=O)N[C@@H](Cc1ccccc1)C(=O)N[C@H](C(=O)N[C@@H](CC(C)C)[C@@H](O)CC(=O)N[C@@H](CC(C)C)C(=O)N[C@@H](Cc1ccccc1)C(N)=O)C(C)C [P-7, Ac NA Pro Phe Val Statine Leu Phe NH2] (Ac-[1Nal]PFV[Sta]LF-NH2) | 57 | 38 |
| COc1ccc(C[C@H](NC(C)=O)C(=O)N2CCC[C@H]2C(=O)N[C@@H](Cc2ccccc2)C(=O)N[C@H](C(=O)N[C@@H](CC(C)C)[C@@H](O)CC(=O)N[C@@H](CC(C)C)C(=O)N[C@@H](Cc2ccccc2)C(N)=O)C(C)C)cc1 [P-9, Ac YOM Pro Phe Val Statine Leu Phe NH2] (Ac-Y(Me)PFV[Sta]LF-NH2) | > 137 and 101 | 109 and 96 |

— patent US6001810A, “Methods for treating retroviral infection” (Eli Lilly and Company, priority 1990, dated 1999)
